Data on 5 substances can be found in patent US6727076B2 (priority 1995, dated 2004).

Common to all, as to experiment: Carbon source utilization in Biolog ES MicroPlate
What all share (assay type): cell-based
Conditions in all cases: PPS inoculum, 35° C., 24 hours

The test system of assay [1] is E. coli strain 11547 (O157:H7).
Assay [2] has as its system E. coli strain 13671 (O157:H? gur+).
Assay [3] relates to E. coli strain 13673 (O157).
Assay [4] concerns E. coli strain 13675 (O157).

On to Acetoactetic acid, for which the carbon source utilization entry in assay [1], in assay [2], in assay [3] and in assay [4] was “−” throughout.
For the substance M-tartaric acid, the carbon source utilization entry is listed as “w” in assay [1], “+” in assay [2], “−” in assay [3] and “−” in assay [4].
As for α-hydroxy-glutaric acid γ-lactone, the carbon source utilization entry in assay [1] is listed as “w”; in assay [2] it was “−”; in assay [3] it was “−”; in assay [4] it was “w”.
With M-inositol, the carbon source utilization result in assay [1], in assay [2], in assay [3] and in assay [4] was “−” throughout.
In the case of Tween-40, the carbon source utilization entry in assay [1], in assay [2], in assay [3] and in assay [4] was “w” each time.
